# Measurements: PubChem BioAssay (NCATS)
# Only a part is listed here, and it is no random draw. Records with an inconclusive call do not appear. Some salts and complexes are drawn in separate pieces, as the source files them; their charges need not balance. Activity calls are given as the source filed them. Unless noted, the call rests on the fitted dose curve; in most records, active means well fitted curve in the direction sought with a large enough effect; inconclusive means small, poorly fitted or top-dose-only effect, or another doubt; inactive means no such curve, though single readings can be large; an effect the other way counts as inactive or inconclusive.
# Experiments:
# [1] = qHTS profiling for inhibitors of Plasmodium falciparum proliferation (AID 504749); further: nearly all actives have a fitted effect of over 60% in size; further: potency means the concentration at half of the fitted maximal effect;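 on activity, negative = inhibition: 0% = DMSO vehicle and full inhibition = artemisinin control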; conditions: P. falciparum in erythrocytes, SYBR Green DNA, 72 h
# In short: (§1)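 SYBR Green fluorescence (ex 485 nm, em 535 nm) reports parasite DNA after 72 h compound exposure of infected red cells at 0.3% parasitemia, 2.5% hematocrit; signal normalized to 0.29 uM artemisinin and vehicle wells.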
# 3D7 = assay: as above; conditions: P. falciparum in erythrocytes, SYBR Green DNA, 72 h; at 28.7 µM (top of the series) unless noted
# In short: as §1
# 7G8 = assay: as above; conditions: P. falciparum in erythrocytes, SYBR Green DNA, 72 h; series mostly up to 28.7 µM
# In short: as §1
# AA1029 = assay: as above; conditions: P. falciparum in erythrocytes, SYBR Green DNA, 72 h; at 28.7 µM (top of the series) unless noted
# In short: as §1
# AS120 = assay: as above; conditions: P. falciparum in erythrocytes, SYBR Green DNA, 72 h; series mostly up to 28.7 µM
# In short: as §1
# [2] = Primary qHTS for inhibitors of MERS-S pseudo-typed particle cell entry (AID 1479149; calls by dose curve; further: nearly all actives have a fitted effect of over 60% in size; on activity change, negative = inhibition: on the % scale 0 is the no-effect control and ±100 the full control effect); conditions: MERS-S pseudotyped particle entry, luciferase; activity change, negative = inhibition: at 57.1 µM (top of the series)
# [3] = Primary qHTS for Vero E6 cytotoxicity: counterscreen for inhibitors of SARS-S pseudo-typed particle cell entry (AID 1479150; calls by dose curve; on activity change, negative = cytotoxicity: on the % scale 0 is the no-effect control and ±100 the full control effect); conditions: cell viability; activity change, negative = cytotoxicity: at 57.1 µM (top of the series)
# [4] = Primary qHTS for inhibitors of La Crosse Virus (LACV) - induced cell death in SH-SY5Y cells (AID 1508616); conditions: SH-SY5Y LACV cytopathicity rescue, ATP luminescence, 6 d; at 4.29 µM (top of the series) unless noted;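 further: top concentration of the series differs between compounds; 0% = infected DMSO wells and 100% = uninfected DMSO wells; higher means more rescue of cells from virus-induced death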
# In short: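 Screening measures cell viability in LACV-infected SH-SY5Y cultures. Compound was added before virus (0.01 MOI), and ATP was detected by luminescence 6 days later.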
# [5] = Cytotoxicity counterscreen for inhibitors of SARS-CoV-2 cell entry (AID 1645845; calls by dose curve; further: nearly all actives have a fitted effect of over 50% in size; on activity change, negative = cytotoxicity: on the % scale 0 is the no-effect control and ±100 the full control effect); conditions: cell viability (SARS-CoV-2 entry assay cells); activity change, negative = cytotoxicity: at 57.1 µM (top of the series)
# In short: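 Counterscreen run in the same HEK293-ACE2 line as the pseudotyped-particle entry assay, without particles. Viability after 48 h at 37 C was read as ATP luminescence, scaled between cell-containing and cell-free wells.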
# [6] = Primary qHTS to identify inhibitors of SARS-CoV-2 cell entry (AID 1645846; calls by dose curve; further: nearly all actives have a fitted effect of over 45% in size); conditions: SARS-CoV-2 pseudovirus cell entry assay, luminescence; activity change, negative = inhibition: at 57.1 µM (top of the series)
# Excerpt: Assay Provider: Wei Zheng, Ph.D.
# National Center for Advancing Translational Sciences, National Institute of Health, Rockville, MD.
# SARS-CoV-2 spike protein, within the viral envelope, mediates viral attachment and infection of host cells. The SARS-CoV-2 spike protein specifically binds to the host receptor ACE2 (Angiotensin-converting enzyme 2). This interaction promotes endocytosis of the viral particle, additional events lead to viral-host cell membrane fusion and release of the viral contents, allowing viral replication.
# While SARS-CoV-2 requires BSL-3 facilities for live virus work, pseudotyped partices (PP) that incorporate SARS-CoV-2 spike proteins without replication elements could facilitate studies on viral entry mechanisms in a BSL-2 setting. This PP cell entry assay could also enable screening of small molecule compound libraries in BSL-2 setting to identify inhibitors of SARS-CoV-2 cell entry.
# PROTOCOL TABLE (format as described by Inglese J, Shamu CE and Guy RK. 2007)
# SEQUENCE No. (e.g., 1, 2, 3, etc.); […] (e.g., Cells, Incubation, Reagent, etc.); VALUE and DESCRIPTION.
# 1. Cells. Seed 1500 HEK293-ACE2 cells (Expi293F with stable expression of human ACE2) in 2 uL/well media (DMEM, 10% FBS, 1x L-glutamine, 1x Pen/Strep, 1 ug/ml puromycin) in white 1536-well assay plates (Greiner #782073).
# 2. Incubation. Incubate at 37C with 5% CO2 overnight (~16 h).
# 3. Compounds. Dispense 23 nL/well compounds in DMSO via pin transfer.
# 4. Incubation. Incubate for 1 hr at 37C 5% CO2.
# 5. Reagent. Dispense 2 uL/well of SARS-CoV-2-S pseudotyped particles. [a] PPs are produced with murine leukemia virus pseudotyping. [b] SARS-CoV-2-S is Wuhan-Hu-1 sequence (BEI #NR-52420) with C-terminal 19 amino acid truncation.
# 6. Centrifuge. […]
# 7. Incubation. Incubate at for 48 hr at 37C 5% CO2
# 8. Centrifuge. Remove supernatant with gentle centrifugation using a Blue Washer (BlueCat Bio).
# 9. Reagent. Dispense 4 uL/well of Bright-Glo Luciferase detection reagent (Promega #E2620).
# 10. Incubation. Incubate for 5 min at room temperature.
# 11. Detection. Read luminescence signal (Viewlux plate reader, PerkinElmer). Data was normalized with wells containing SARS-CoV-2-S PP as 100%, and wells containing bald PP (no fusion protein) as 0%.
# [7] = at 28.7 µM (top of the series), parasite line A
# [8] = at 28.7 µM (top of the series), parasite line B
smiles,measurement,setting,value
C/C1=C2N=C(/C=C3N=C(/C(C)=C4\[N-][C@@](C)([C@H]5N=C1[C@@](C)(CCC(=O)NC[C@H](C)OP(=O)([O-])O[C@@H]1[C@H](O)[C@H](n6cnc7cc(C)c(C)cc76)O[C@@H]1CO)[C@@H]5CC(N)=O)[C@](C)(CC(N)=O)[C@H]4CCC(N)=O)[C@@](C)(CC(N)=O)[C@@H]\3CCC(N)=O)C(C)(C)[C@@H]/2CCC(N)=O.[C-]#N.[Co+3],"activity, negative = inhibition","[1]; at 12.8 µM (top of the series), parasite line A",inactive: 1.69%
same,"activity, negative = inhibition","[1]; at 12.8 µM (top of the series), parasite line B",inactive: 5.48%
same,"activity, negative = inhibition",3D7,inactive: 0.574% [at 12.8 µM]
same,Potency,7G8,inactive
same,"activity, negative = inhibition",AA1029,inactive: 5.69% [at 12.8 µM]
same,Potency,AS120,inactive
CCOP(=O)(CC)Oc1ccc([N+](=O)[O-])cc1 (stereo unspecified),outcome,[2],inactive
same,outcome,[3],inactive
same,activity change,[4],inactive: -25.5%
same,"activity change, negative = cytotoxicity",[5],inactive: -12.2%
Cc1cccc([N+](=O)[O-])c1[N+](=O)[O-],activity change,[4],inactive: 2.59% [at 8.54 µM]
C/C1=C2N=C(/C=C3N=C(/C(C)=C4\[N-][C@@](C)([C@@H]5N=C1[C@](C)(CCC(=O)NC[C@@H](C)OP(=O)([O-])O[C@H]1[C@@H](O)[C@@H](n6cnc7cc(C)c(C)cc76)O[C@@H]1CO)[C@H]5CC(N)=O)[C@@](C)(CC(N)=O)[C@@H]4CCC(N)=O)[C@@](C)(CC(N)=O)[C@@H]\3CCC(N)=O)C(C)(C)[C@@H]/2CCC(N)=O.[C-]#N.[Co+3],outcome,[2],inactive
same,"activity change, negative = cytotoxicity",[3],inactive: -3.91%
same,activity change,[4],inactive: 3.24%
same,outcome,[5],inactive
same,"activity change, negative = inhibition",[6],-19.4%
OCCSCCO,activity change,[4],inactive: 12.3%
CC(C)OP(=O)(F)OC(C)C,outcome,[2],inactive
same,outcome,[3],inactive
same,outcome,[5],inactive
same,"activity change, negative = inhibition",[6],-25.3%
same,"activity, negative = inhibition",[1]; [7],inactive: -8.69%
same,"activity, negative = inhibition",[1]; [8],inactive: 14.1%
same,"activity, negative = inhibition",3D7,inactive: 0.389%
same,Potency,7G8,inactive
same,"activity, negative = inhibition",AA1029,inactive: -4.42%
same,Potency,AS120,inactive
O=[N+]([O-])c1cccc([N+](=O)[O-])c1,"activity change, negative = inhibition",[2],inactive: -21.2%
same,"activity change, negative = cytotoxicity",[3],inactive: 0.987%
same,activity change,[4],inactive: 8.1% [at 8.54 µM]
same,outcome,[6],inactive
same,"activity, negative = inhibition",[1]; [7],inactive: -5.61%
same,"activity, negative = inhibition",[1]; [8],inactive: -2.4%
same,"activity, negative = inhibition",3D7,inactive: -9.48%
same,Potency,7G8,inactive
same,"activity, negative = inhibition",AA1029,inactive: 5.45%
same,Potency,AS120,inactive
O=[N+]([O-])OCC(CO[N+](=O)[O-])(CO[N+](=O)[O-])CO[N+](=O)[O-],"activity change, negative = cytotoxicity",[5],inactive: -0.125%
same,"activity change, negative = inhibition",[6],-13.5%
same,Potency,[1]; parasite line A,active: 8.91 µM
same,Potency,[1]; parasite line B,active: 12.6 µM
same,Potency,7G8,active: 5.01 µM
same,"activity, negative = inhibition",AA1029,inactive: -19.2%
same,Potency,AS120,active: 7.08 µM
C/C1=C2/N=C(C(CC(N)=O)C2(C)CCC(=O)NCC(C)OP(=O)([O-])OC2C(CO)OC(n3cnc4cc(C)c(C)cc43)C2O)C2(C)N=C(/C(C)=C3N=C(/C=C4N=C1C(CCC(N)=O)C\4(C)C)C(CCC(N)=O)C/3(C)CC(N)=O)C(CCC(N)=O)C2(C)CC(N)=O.[C-]#N.[Co] (stereo unspecified),"activity change, negative = cytotoxicity",[5],inactive: -3.58%
same,"activity change, negative = inhibition",[6],-13.3%
